Measured values: US10869476B2 (priority 2015, dated 2020)

Experiment: Field trials of wheat, yield
Conditions: wheat field trials France and Germany 2016, UTC 80

## CON(C(=O)c1cn(C)nc1C(F)F)C(C)Cc1c(Cl)cc(Cl)cc1Cl (centres unmarked) [Pydiflumetofen, 3-(Difluoromethyl)-N-methoxy-1-methyl-N-[1-(2,4,6-trichlorophenyl)-2-propanyl]-1H-pyrazole-4-carboxamide]
45 g a.i./ha
  Yield in dt/ha: 112 dt/ha
60 g a.i./ha
  Yield in dt/ha: 111 dt/ha
